In patent US6291640A (Boehringer Ingelheim Ltd., priority 1998, dated 2001):
Strings that start with PEPTIDE1 are HELM notation: dots part the residues, brackets hold end groups and non-standard residues.

Assay: general procedure: peptide synthesis; resin 103 (semicarbazone-linked activated ketone resin; polystyrene or pegylated polystyrene with BHA, MBHA or AM); DIC/HOBt; or TBTU/HOBt/DIPEA
Details: whole synthesis, HPLC (phosphate), scale of the general procedure 0.25 mmol

## PEPTIDE1{[ac].S.Y.V.K.[Ala(d,l)-CO].[NHBn]}$$$$V2.0
  purity (crude or final not stated): 81%
